Compound potency records, mixed from different reports. Data source: NIAID ChemDB in PubChem.

Common to all: tests in culture; species: Mycobacterium tuberculosis

a–b is a range or a potency band. Lines come from different laboratories, so protocols vary. A number after MIC or MFC names an inhibition level or a share of isolates. Percent inhibition refers to the dose given; in toxicity tests it is the harm to the cells. ECn: concentration that inhibits the pathogen or its effect by n%. MIC bound: limit read from a one-dose screen. Blank or dashed fields: not listed here.

compound	setting	read by	tested at	strain or isolate	endpoint	value
Cc1cc(N(CCOS(C)(=O)=O)CCOS(C)(=O)=O)ccc1C=Nc1ccc(-c2csc(-c3ccccc3)n2)c(Cl)c1		BACTEC	12.5 µg/mL	H37Rv	inhibition	71%
CCCCSc1nnnn1-c1cccc(C)c1				H37Rv	MIC	61 µM
COc1ccc(CS/C(N)=N/N=C/c2cc(Br)ccc2O)cc1	14 d	broth dilution		H37Rv	MIC	62.5 µM
Cc1cccc(-n2nnnc2SC(C)C)c1				H37Rv	MIC	250 µM
NNC(=O)c1ccncc1		broth dilution / turbidity		H37Ra ATCC 25177	MIC	0.03 µg/mL
O=C1C=C(Nc2nc(C(=O)O)cc(=O)[nH]2)c2ccccc2C1=O		BACTEC	12.5 µg/mL	H37Rv	inhibition	0%
O=[N+]([O-])/C=C/c1ccc(Oc2cc(/C=C/[N+](=O)[O-])ccc2O)cc1				H37Rv	MIC	31.25 µg/mL
COc1ccc(-c2cc(=O)c3ccc(OC)cc3o2)cc1				H37Rv	MIC	>12.5 µg/mL
Brc1ccc2[nH]c3ccc(Br)cc3c2c1				H37Rv	MIC	>128 µM
COc1cc(C(O)C[N+](=O)[O-])cc(Br)c1OC				H37Rv	MIC	125 µg/mL
Cc1ccc(NC(=O)CC(=O)Nc2ccc(C)c(Cl)c2)cc1Cl					MIC	12.3 µM
COc1ccccc1N=NC(C#N)C(N)=O		BACTEC		H37Rv	MIC	≥12.5 µg/mL
O=C(Oc1ccc(Br)cc1C(=O)Nc1ccc(C(F)(F)F)cc1)c1ccccc1	14 d	broth dilution		331/88 (H37Rv)	MIC	1 µM
CC(C)Cc1ccc(C(=O)CCC(=O)NC[C@H]2CN(c3ccc(-n4cncn4)c(F)c3)C(=O)O2)cc1				10 clinical isolates resistant	MIC	2–8 µg/mL
CCCSc1nnc(-c2ccc([N+](=O)[O-])o2)s1				H37Rv	MIC	>6.25 µg/mL
COc1cc2nn(-c3ccccc3N)nc2cc1OC		BACTEC		H37Rv	MIC bound	>12.5 µg/mL
CCCCN1CCN(c2ccc3nc(-c4ccc5nc(-c6ccc(OCC)cc6)[nH]c5c4)[nH]c3c2)CC1		broth dilution / turbidity		H37Ra	MIC90	1.78 µg/mL
CCOc1cc(O)c(C(=O)/C=C/c2ccccc2)c(OCC)c1				H37Rv	MIC	>12.5 µg/mL
Cc1ccc2nc(C)c(C(=O)NCc3ccc(C(F)(F)F)cc3)n2c1		low oxygen		H37Rv	EC50	0.39 µM
Cc1ccc(NC(=O)C(=O)Nc2ccc(C)cc2)cc1					MIC	>1000 µM
Cc1cccc(NN=O)n1		BACTEC		H37Rv	MIC	≥12.5 µg/mL
O=C(Oc1ccc(Cl)cc1C(=O)Nc1cccc(Cl)c1)c1ccccc1	21 d	broth dilution		331/88 (H37Rv)	MIC	2 µM
Cc1cn2c(C(=O)NCc3ccc(C(F)(F)F)cc3)c(C)nc2s1		low oxygen		H37Rv	MIC	5.6 µM
COC(=O)C1(c2ccc(N(C)C)cc2OC)CCCN(C(=O)Oc2ccccc2[N+](=O)[O-])CCc2c1[nH]c1ccccc21		resazurin	6.25 µg/mL	H37Rv	inhibition	20%
COc1cc(/C=C/CO)cc2cc(-c3ccc4c(c3)OCO4)oc12		broth dilution / turbidity		H37Ra ATCC 25177	MIC	>50 µg/mL
Cn1c([N+](=O)[O-])cnc1-c1nnc(SCc2cccc([N+](=O)[O-])c2)s1			6.25 µg/mL	H37Rv	inhibition	0%
COc1cc2c(cc1OC)C(CC(C)=O)N(C)c1c-2ccc2cc3c(cc12)OCO3		broth dilution / turbidity		H37Rv (ATCC 27294)	MIC	12.5 µg/mL
Cc1ccc(CS/C(N)=N/N=C/c2ccccc2O)cc1	21 d	broth dilution		H37Rv	MIC	62.5 µM
COC(=O)[C@]1([C@@H]2CCC(=O)O2)CC(=O)c2c(cc3c(c2O)C2C=CC4(C3)C(=O)c3cc(C)cc(O)c3C(=O)[C@@]4(O)C2=O)O1				H37Ra	MIC	217 µM
N/C(=N\N=C\c1cc(Cl)cc(Cl)c1O)SCc1ccc(Br)cc1	21 d	broth dilution		H37Rv	MIC	32 µM
O=[N+]([O-])c1cccc(CSc2nnc(-c3ccc([N+](=O)[O-])o3)s2)c1			6.25 µg/mL	H37Rv	inhibition	98%
COc1ccc(NCc2cc3ccccc3nc2Cl)cc1				H37Ra	MIC	>400 µg/mL
Cc1cc(NCC(O)C(O)C(O)CO)c(C(=O)NN)cc1C		BACTEC		H37Rv	MIC	≥12.5 µg/mL
COC1=C(C)C(=O)c2[nH]c3ccccc3c2C1=O				H37Rv	MIC	9 µM
Cc1ccc(-n2nnnc2SC(C)C)cc1C				H37Rv	MIC	125 µM
COC(=O)c1ccc(Oc2cc(C=O)cc(OC)c2OC)cc1				H37Rv	MIC	62.5 µg/mL
COC(=O)[C@H]1[C@H](O)[C@@H](C)[C@@H](O)[C@](C)(O)/C=C(\C)C2=C3C(=C(C)C(=O)c4c(O)c(c(C)c(OC(C)=O)c43)NC(=O)/C(C)=C/C=C\[C@@H](C)C(O)[C@@H](C)[C@H]1O)OCO2				KM-R	MIC	0.8 µg/mL
Cc1ccc(C(=O)CCC(=O)NC[C@H]2CN(c3ccc(-[n+]4[nH]nc5ccccc54)c(F)c3)C(=O)O2)c(C)c1				10 clinical isolates resistant	MIC	>16 µg/mL
Clc1nc2ccccc2cc1CNc1ccccc1				H37Ra	MIC	>400 µg/mL
O=C(Oc1ccc(Cl)cc1C(=O)Nc1ccc(C(F)(F)F)cc1)c1ccccc1	21 d	broth dilution		9449/2006	MIC	0.5 µM
COc1cc(/C=C/C2c3c(ccc(OC)c3OC)-c3ccc4cc5c(cc4c3N2C)OCO5)ccc1O		broth dilution / turbidity		H37Rv (ATCC 27294)	MIC	50 µg/mL
O=c1ccc2c(ccc3ncccc32)o1		BACTEC		H37Rv	MIC bound	>12.5 µg/mL
N/C(=N\N=C\c1ccccc1)SCc1cccc(Cl)c1	21 d	broth dilution		H37Rv	MIC	62.5 µM
CCOC(=O)CN1CC(C)(C)N(CC(=O)OCC)CC1(C)C		BACTEC		H37Rv	MIC bound	>12.8 µg/mL
COc1ccccc1Oc1ccccc1NC(C)=O				H37Rv	MIC	500–1000 µg/mL
C#CCSc1nnc(-c2ncc([N+](=O)[O-])n2C)s1			6.25 µg/mL	H37Rv	inhibition	0%
CCOC(=O)c1cc(=O)oc2c1N(C)c1ncccc1N2		resazurin	6.25 µg/mL	H37Rv	inhibition	2%
COc1ccc(CC(=S)N2CCOCC2)cc1				H37Rv	MIC	250 µg/mL
O=C(/C=C/c1ccccc1)c1cc(-c2ccccc2)ccc1O			12.5 µg/mL	H37Rv	inhibition	68%
CCCSc1nnnn1-c1c(C)cc(C)cc1C				H37Rv	MIC	250 µM
Cc1c2c(cc3c1[nH]c1ccccc13)C(c1ccc(Cl)cc1)=NCC2		resazurin		H37Rv	MIC bound	<6.25 µg/mL
CCCCCCCC1=C(C)C(=O)c2[nH]c3ccccc3c2C1=O				H37Rv	MIC	117 µM
NNC(=O)c1ccncc1		fluorescence / absorbance		H37Rv	EC90	0.62 µM
NC(=S)N(Cc1cc2ccccc2nc1Cl)c1ccc(Cl)cc1				H37Ra	MIC	100 µg/mL
N/C(=N\N=C\c1ccccc1)SCc1ccc(C(F)(F)F)cc1	21 d	broth dilution		H37Rv	MIC	62.5 µM
COC(=O)Cc1ccc(Oc2cc(C(OC(C)=O)OC(C)=O)cc(OC)c2OC(C)=O)cc1				H37Rv	MIC	500–1000 µg/mL
COc1c(CO)c(C)c(CC(C)OC(C)=O)c2[nH]c3ccc(C(=O)CC4=C(C)CC(C)(C)CC4)cc3c12				H37Rv	MIC	8 µM
CCCCCCCCCCCCCCCCOc1ccc(S(=O)(=O)Nc2cc(C(=O)OC)cc(C(=O)OC)c2)cc1N		BACTEC	12.5 µg/mL	H37Rv	inhibition	-7%
O=C(Oc1ccc(Cl)cc1C(=O)Nc1ccc(Cl)c(Cl)c1)c1ccccc1	14 d	broth dilution		7357/1998	MIC	0.5 µM
N/C(=N\N=C\c1ccccc1O)SCc1cccc(Cl)c1	14 d	broth dilution		H37Rv	MIC	32 µM
Cc1cc2c(cc1O)[nH]c1ccccc12				H37Rv	MIC	105 µM
Cc1ccc(S(=O)(=O)Oc2ccc3oc4c(CO)ccc(NCCN(C)C)c4c(=O)c3c2)cc1				INH-r	MIC	12.5 µg/mL
O=c1c2ccccc2nc2n1CCc1c-2[nH]c2ccccc12		broth dilution / turbidity		H37Ra ATCC 25177	MIC	>50 µg/mL
O=C(CCC(=O)c1ccc2ccccc2c1)NC[C@H]1CN(c2ccc(N3CCCC3)c(F)c2)C(=O)O1				10 clinical isolates resistant	MIC	>16 µg/mL
CNC(=S)N(Cc1cc2ccccc2nc1Cl)c1ccc(F)cc1				H37Ra	MIC	100 µg/mL
CCSc1nnnn1-c1ccc(C)cc1				H37Rv	MIC	500 µM
Cc1ccc2nc(C)c(C(=O)NCc3cccc(S(F)(F)(F)(F)F)c3)n2c1		low oxygen		H37Rv	MIC	200 µM
O=C(Nc1ccc(Cl)c(Cl)c1)C(=O)Nc1ccc(Cl)c(Cl)c1					MIC	4 µM
CC1=CC2(C)OC3C(=O)N(c4ccc(Cl)cc4)C(=O)C3C2N=C1		BACTEC	12.5 µg/mL	H37Rv	inhibition	38%
O=C(Oc1cc(Cl)ccc1C(=O)Nc1ccc(F)cc1)c1ccccc1	14 d	broth dilution		331/88 (H37Rv)	MIC	8 µM
COC1=C(Br)[C@@H](O)[C@]2(C=C1Br)CC(C(=O)NCC(O)c1cc(Br)c(OCCCNC(=O)C3=NO[C@]4(C=C(Br)C(OC)=C(Br)[C@@H]4O)C3)c(Br)c1)=NO2				H37Rv	MIC	7.3 µM
COC(=O)n1c(=O)n(-c2ccccc2)c(=O)n1C(=O)OC		resazurin	6.25 µg/mL	H37Rv	inhibition	9%
COC1=C(Br)C(O)C2(C=C1Br)CC(C(=O)NCC(O)COc1c(Br)cc(C(O)CNC(=O)C3=NOC4(C=C(Br)C(OC)=C(Br)C4O)C3)cc1Br)=NO2				H37Rv	MIC	7.1 µM
O=C(CC(=O)Nc1ccccc1)Nc1ccccc1					MIC	37 µM
C#CCn1ncc2c(SCc3ccccc3)ncnc21		BACTEC		H37Rv	MIC	12.5 µM
O=C(NCC(=O)N1CCN(c2ccc(N3C[C@H](Cn4ccnn4)OC3=O)cc2F)CC1)C1=CC=C([N+](=O)[O-])C1		broth dilution / visual reading	0.5 µM	H37Rv	inhibition	57%
CCCCCCCCC(=O)c1c(OC)oc(C=O)cc1=O		BACTEC		H37Rv	MIC bound	>12.5 µg/mL
C[C@@H]1C(=O)C[C@H]2[C@H]1CC[C@@](C)(O)[C@H]1CC[C@](C)(O1)[C@@H]2O					MIC	128 µg/mL
CCc1ccc2c(c1)[nH]c1ccc(C=O)cc12				H37Rv	MIC	>128 µM
O=c1cc(-c2ccc(Cl)cc2)oc2ccccc12				H37Rv	MIC	>12.5 µg/mL
O=c1[nH]ncc(Cl)c1Cl		resazurin	6.25 µg/mL	H37Rv	inhibition	29%
N/C(=N\N=C\c1cc(Br)ccc1O)SCc1ccc(F)cc1	14 d	broth dilution		H37Rv	MIC	16 µM
CCOC(=O)C1C(c2ccc(OC)cc2)C(C(=O)OCC)C(O)(C(F)(F)F)OC1(O)C(F)(F)F		BACTEC		H37Rv	MIC	>4 µg/mL
O=c1cc(-c2ccccc2)oc2cc(Br)ccc12				H37Rv	MIC	>12.5 µg/mL
COC(=O)c1ccc(Oc2cc(C=O)cc(OC)c2O)cc1				H37Rv	MIC	31.25–500 µg/mL
CCCCCCCCC/C=C/C=C/C(=O)NCC(C)C		broth dilution / turbidity		H37Rv (ATCC 27294)	MIC	1.6 µg/mL
O=C1c2cc(Br)ccc2OC2CCON12		resazurin		H37Rv	MIC bound	>6.25 µg/mL
COC(=O)Cc1cc([N+](=O)[O-])c(Oc2ccc(OC)cc2)c([N+](=O)[O-])c1				H37Rv	MIC	62.5–125 µg/mL